Results of unrelated studies side by side (data: NIAID ChemDB).

Shared fields: growth or infection tests; organism: Mouse cytomegalovirus; cell line: MEF; measure: EC50

Neighbouring rows are from separate reports. An empty or dashed field is not shown. ECn: concentration that inhibits the pathogen or its effect by n%.

{"SMILES": "Nc1nc(OCC2CC2)c2ncn(/C=C3/C[C@@H]3CO)c2n1", "read by": "plaque count", "value": "0.3 µM"}
{"SMILES": "CCCCCCCC/C=C\\CCCCCCCOCCOP1(=O)CO[C@@H](Cn2ccc(N)nc2=O)CO1", "read by": "plaque count", "value": "0.001 µM"}
{"SMILES": "Nc1ncnc2c1ncn2/C=C1/C[C@H]1CO", "read by": "plaque count", "value": "55 µM"}
{"SMILES": "CCCOc1nc(N)nc2c1ncn2/C=C1/C[C@@H]1CO", "read by": "plaque count", "value": "<0.1 µM"}
{"SMILES": "Nc1ncnc2c1ncn2/C=C1/CC1(CO)CO", "strain": "SMITH", "read by": "plaque count", "value": "10 µM"}
{"SMILES": "COC(=O)[C@H](C)NP(=O)(OC[C@H]1C/C1=C/n1cnc2c(OC)nc(N)nc21)Oc1ccccc1", "value": "0.24 µM"}
{"SMILES": "Nc1ccn(C[C@H]2COP(=O)(O)CO2)c(=O)n1", "read by": "plaque count", "value": "0.07 µM"}
{"SMILES": "CCCCCOc1nc(N)nc2c1ncn2/C=C1/C[C@@H]1CO", "read by": "plaque count", "value": "1.4 µM"}
{"SMILES": "CCCCCCCCCCCCCCCCOCCCOP(=O)(O)CO[C@H](CO)Cn1ccc(N)nc1=O", "strain": "SMITH", "read by": "plaque count", "value": "0.0009 µM"}
{"SMILES": "COC(=O)[C@H](C)NP(=O)(OCC1C/C1=C/n1cnc2c(=O)[nH]c(N)nc21)Oc1ccccc1", "value": "3.3 µM"}
{"SMILES": "COc1cc(OC)c(NC(=S)Nc2ccc(NC(=O)c3ccco3)cc2)cc1Cl", "strain": "SMITH", "value": ">20 µM"}
{"SMILES": "C=CCOc1nc(N)nc2c1ncn2/C=C1/C[C@@H]1CO", "read by": "plaque count", "value": "0.3 µM"}
{"SMILES": "CCCOc1nc(N)nc2c1ncn2/C=C1/C[C@@H]1CO", "read by": "plaque count", "value": "<0.1 µM"}
{"SMILES": "CCCCCCCC/C=C\\CCCCCCCCOCCOP(=O)(O)CO[C@H](CO)Cn1ccc(N)nc1=O", "strain": "SMITH", "read by": "plaque count", "value": "0.004 µM"}
{"SMILES": "CCCCCSc1nc(N)nc2c1ncn2/C=C1/C[C@@H]1CO", "read by": "plaque count", "value": "1.4 µM"}
{"SMILES": "Nc1nc(F)c2ncn(/C=C3/CC3(CO)CO)c2n1", "read by": "plaque count", "value": "8.7 µM"}
{"SMILES": "Nc1nc(N)c2ncn(C=C3CC3CO)c2n1", "value": "0.6 µM"}
{"SMILES": "CCCCCCCCCCCCCCCCOCCCOP1(=O)CO[C@@H](Cn2ccc(N)nc2=O)CO1", "strain": "SMITH", "read by": "plaque count", "value": "0.004 µM"}
{"SMILES": "O=c1[nH]c(=O)n([C@H]2C[C@H](O)[C@@H](CO)O2)cc1C(F)(F)F", "strain": "ATCC VR-194", "read by": "virus yield", "value": "0.22 µM"}
{"SMILES": "Nc1nc2c(ncn2COC(CO)CO)c(=O)[nH]1", "read by": "plaque count", "value": "5.2 µM"}
{"SMILES": "Nc1nc(NC2CC2)c2ncn(C=C3CC3CO)c2n1", "read by": "plaque count", "value": "0.37 µM"}
{"SMILES": "CCCCCCCC/C=C\\CCCCCCCCOCCOP(=O)(O)CO[C@H](CO)Cn1ccc(N)nc1=O", "read by": "plaque count", "value": "0.004 µM"}
{"SMILES": "Nc1nc(NC2CC2)c2ncn(/C=C3/C[C@@H]3CO)c2n1", "read by": "plaque count", "value": "0.1 µM"}
{"SMILES": "Nc1nc2c(ncn2/C=C2/CC2(CO)CO)c(=O)[nH]1", "read by": "plaque count", "value": "9.7 µM"}
{"SMILES": "COC(=O)[C@H](C)NP(=O)(OCC1C/C1=C/n1cnc2c(NC3CC3)nc(N)nc21)Oc1ccccc1", "read by": "plaque count", "value": "0.93 µM"}
{"SMILES": "Nc1nc(Cl)c2ncn(/C=C3/C[C@H]3CO)c2n1", "read by": "plaque count", "value": "0.3 µM"}
{"SMILES": "Nc1nc2c(ncn2C=C2CC2CO)c(=O)[nH]1", "read by": "plaque count", "value": "0.3 µM"}
{"SMILES": "CCCCCCCC/C=C\\CCCCCCCOCCCOP(=O)(O)CO[C@H](CO)Cn1ccc(N)nc1=O", "strain": "SMITH", "read by": "plaque count", "value": "0.004 µM"}
{"SMILES": "O=C(O)CP(=O)(O)O", "read by": "plaque count", "value": "15.1 µg/mL"}
{"SMILES": "Nc1ccn(C[C@@H](CO)OCP(=O)(O)O)c(=O)n1", "read by": "plaque count", "value": "<0.09 µM"}
{"SMILES": "CCCCCCCCCCCCCCCCCCOCCOP(=O)(O)CO[C@H](CO)Cn1ccc(N)nc1=O", "strain": "SMITH", "read by": "plaque count", "value": "0.001 µM"}

3 of the rows above, restated:

| SMILES | strain | read by | value |
|---|---|---|---|
| CCCCCOc1nc(N)nc2c1ncn2/C=C1/C[C@@H]1CO |  | plaque count | 1.4 µM |
| COC(=O)[C@H](C)NP(=O)(OCC1C/C1=C/n1cnc2c(NC3CC3)nc(N)nc21)Oc1ccccc1 |  | plaque count | 0.93 µM |
| CCCOc1nc(N)nc2c1ncn2/C=C1/C[C@@H]1CO |  | plaque count | <0.1 µM |